The experiment concerns Salmonella, Shigella and C. jejuni. It counts as cell-based. To be noted: MIC50 across Salmonella.

Amoxicillin-clavulanate showed an MIC50 ranges of 2 to 8 µg/mL.

The record behind these values is patent US9439918B2 (priority 2008, dated 2016).
